Literature values as cited in patent US20130115171A1, “NAV1.7-RELATED ASSAYS” (priority 2011, published 2013).

The chains behind the UniProt entries cited, without tags or fusion partners.
UniProt P04775, whole entry, looked up: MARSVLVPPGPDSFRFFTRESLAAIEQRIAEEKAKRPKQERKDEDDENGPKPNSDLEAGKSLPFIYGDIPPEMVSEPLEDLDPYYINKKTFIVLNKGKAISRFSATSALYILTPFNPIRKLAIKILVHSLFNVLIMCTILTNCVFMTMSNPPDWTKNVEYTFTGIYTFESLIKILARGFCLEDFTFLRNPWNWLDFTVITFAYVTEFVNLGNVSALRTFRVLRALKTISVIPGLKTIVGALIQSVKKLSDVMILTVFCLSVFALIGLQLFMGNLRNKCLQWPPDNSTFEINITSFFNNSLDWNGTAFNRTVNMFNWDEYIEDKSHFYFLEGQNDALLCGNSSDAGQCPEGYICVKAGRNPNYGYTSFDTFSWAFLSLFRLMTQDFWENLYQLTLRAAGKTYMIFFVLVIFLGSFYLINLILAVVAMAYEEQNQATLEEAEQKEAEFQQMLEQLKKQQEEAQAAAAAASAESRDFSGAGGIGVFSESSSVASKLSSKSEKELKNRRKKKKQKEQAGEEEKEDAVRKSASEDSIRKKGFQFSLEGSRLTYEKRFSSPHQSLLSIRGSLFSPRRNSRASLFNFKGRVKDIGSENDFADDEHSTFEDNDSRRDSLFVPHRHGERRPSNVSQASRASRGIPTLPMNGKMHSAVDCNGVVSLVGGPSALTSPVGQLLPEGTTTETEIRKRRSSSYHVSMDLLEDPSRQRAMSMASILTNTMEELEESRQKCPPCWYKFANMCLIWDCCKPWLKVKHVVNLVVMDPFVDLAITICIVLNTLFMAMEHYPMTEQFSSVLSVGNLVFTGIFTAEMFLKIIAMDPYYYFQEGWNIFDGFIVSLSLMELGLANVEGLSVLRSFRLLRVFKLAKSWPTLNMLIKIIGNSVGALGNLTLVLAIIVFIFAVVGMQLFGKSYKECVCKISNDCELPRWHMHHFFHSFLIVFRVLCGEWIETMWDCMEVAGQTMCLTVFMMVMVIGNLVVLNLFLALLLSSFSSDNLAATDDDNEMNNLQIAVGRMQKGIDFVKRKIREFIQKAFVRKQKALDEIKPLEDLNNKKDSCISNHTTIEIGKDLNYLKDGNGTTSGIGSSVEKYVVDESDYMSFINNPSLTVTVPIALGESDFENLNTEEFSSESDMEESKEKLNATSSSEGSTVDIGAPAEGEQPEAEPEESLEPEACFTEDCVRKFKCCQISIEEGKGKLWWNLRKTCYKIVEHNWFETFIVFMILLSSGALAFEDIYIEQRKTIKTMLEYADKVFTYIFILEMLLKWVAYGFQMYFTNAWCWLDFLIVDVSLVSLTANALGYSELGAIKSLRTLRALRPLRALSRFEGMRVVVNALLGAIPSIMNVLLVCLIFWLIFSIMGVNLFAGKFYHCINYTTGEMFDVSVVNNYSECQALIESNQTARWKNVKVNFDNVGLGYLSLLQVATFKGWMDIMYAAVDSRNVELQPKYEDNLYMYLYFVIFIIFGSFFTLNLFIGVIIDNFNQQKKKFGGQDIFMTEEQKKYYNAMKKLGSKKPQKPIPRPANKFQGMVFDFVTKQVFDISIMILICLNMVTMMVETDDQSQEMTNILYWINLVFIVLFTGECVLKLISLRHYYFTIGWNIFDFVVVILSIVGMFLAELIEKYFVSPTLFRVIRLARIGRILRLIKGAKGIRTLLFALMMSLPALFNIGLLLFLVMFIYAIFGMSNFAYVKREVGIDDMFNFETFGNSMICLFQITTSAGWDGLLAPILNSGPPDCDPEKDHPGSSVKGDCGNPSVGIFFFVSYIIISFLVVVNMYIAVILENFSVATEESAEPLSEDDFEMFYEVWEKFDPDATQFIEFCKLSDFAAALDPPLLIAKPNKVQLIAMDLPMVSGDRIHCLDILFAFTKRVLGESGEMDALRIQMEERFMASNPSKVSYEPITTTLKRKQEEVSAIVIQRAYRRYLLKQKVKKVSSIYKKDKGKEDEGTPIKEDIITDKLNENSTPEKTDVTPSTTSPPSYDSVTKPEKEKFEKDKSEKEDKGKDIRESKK

How the values were obtained:
[1] = molecular target: NaV1.2 (Rattus norvegicus, UniProt P04775); conditions: read-out: TTX IC50; cited from earlier work
[2] = molecular target: NaV1.1 (Rattus norvegicus, UniProt P04774); conditions: read-out: TTX IC50; cited from earlier work

NC1=N[C@H](O)[C@H]2[C@H]3O[C@]4(O)O[C@@H]([C@@H](O)[C@@]2(N1)[C@@H]4O)[C@]3(O)CO [TTX, tetrodotoxin]
IC50 [1]: 0.01 µM | IC50 [2]: 0.01 µM
